Measurements: PMC12720783, “Dynamic interaction of the Yersinia pseudotuberculosis type three secretion system proteins LcrV and LcrG” (2025)

Target: LcrG, full length, Yersinia pseudotuberculosis, P69958 1-95
Test: FRET or BRET

For “LcrV-BODIPY (LcrV C273A D293C labelled with BODIPY)”, the result was “binds”.
